Source: paper PMC10174528, “Dual role of the foot-and-mouth disease virus 3B1 protein in the replication complex: As protein primer and as an essential component to recruit 3D^pol to membranes” (2023)

Experiments:
[1] = molecular target: FLAG-tagged FMDV 3AB1(R16A/L19S), in E. coli membranes (foot-and-mouth disease virus | foot-and-mouth disease virus strain C-S8c1); assay: pull-down
[2] = molecular target: FLAG-tagged FMDV 3AB1(P6S/R9A), in E. coli membranes (foot-and-mouth disease virus | foot-and-mouth disease virus strain C-S8c1); assay: pull-down
[3] = molecular target: FMDV 3Dpol as coated on the ELISA plate (foot-and-mouth disease virus); assay: ELISA

Substance: FMDV 3Dpol with 6xHis tag in the C-terminus (3DpolHis) (enzyme)
- loss of the ability to bind 3Dpol [1]: > 95%
- binding level compared to the wild-type [2]: 30%

Substance: GST-3B1(R16A/L19S) (peptide)
- binding in comparison to WT 3B1 [3]: 30%
